A mixed list of measured activities; the numbers were collected in NIAID ChemDB.

All rows: whole-cell or culture tests; agent: Vaccinia virus; cells: HEL; measure: EC50

Conditions beyond the fields shown may differ between rows. ECn is the concentration giving n% inhibition of infection, replication or growth.

structure	result
Nc1ncnc2c1ncn2[C@@H]1O[C@H](C=O)C[C@H]1O	400 µg/mL
CCOC(=O)Sc1nnc(-c2cn(-c3ccccc3)nc2-c2ccccc2)n1N	>16 µg/mL
O=c1[nH]c(=O)n([C@H]2C[C@H](O)[C@@H](CO)O2)cc1-c1ccc(Cl)o1	45 µg/mL
Nc1ncnc2c1ncn2[C@H]1C[C@H](O)[C@@H](C=O)O1	400 µg/mL
S=c1[nH]n2c(-c3cn(-c4ccccc4)nc3-c3ccccc3)nnc2s1	>80 µg/mL
CCCCCC#Cc1cn(S(=O)(=O)c2ccc(C)cc2)c(=O)[nH]c1=O	>40 µM
O=c1[nH]c(=O)n([C@H]2C[C@H](O)[C@@H](CO)O2)cc1-c1ccco1	7 µg/mL
CCCCCCCc1cc2cnc(=O)[nH]c2o1	>200 µM
O=c1[nH]c(=O)n([C@H]2C[C@H](O)[C@@H](CO)O2)cc1-c1ccc(Cl)s1	>200 µg/mL
C#Cc1cn(S(=O)(=O)c2ccc(C)cc2)c(=O)[nH]c1=O	>200 µM
O=c1[nH]c(=O)n([C@H]2C[C@H](O)[C@@H](CO)O2)cc1-c1ccc(Br)s1	70 µg/mL
CCCCCCCCC#Cc1cn(S(=O)(=O)c2ccc(C)cc2)c(=O)[nH]c1=O	>200 µM
CCOC(=O)C1=CSc2nnc(-c3cn(-c4ccccc4)nc3-c3ccccc3)n2N=C1N	>16 µg/mL
CCCCC#Cc1c[nH]c(=O)[nH]c1=O	>200 µM
O=C(Nn1c(-c2cn(-c3ccccc3)nc2-c2ccccc2)n[nH]c1=S)c1ccccc1	>16 µg/mL
Nc1nc(=O)n([C@H]2C[C@H](O)[C@@H](CO)O2)cc1-c1cccs1	20 µg/mL

The first 2 rows once more:

| structure | result |
|---|---|
| Nc1ncnc2c1ncn2[C@@H]1O[C@H](C=O)C[C@H]1O | 400 µg/mL |
| CCOC(=O)Sc1nnc(-c2cn(-c3ccccc3)nc2-c2ccccc2)n1N | >16 µg/mL |